Laboratory results from the supplement of paper PMC9931576.
Human monoclonal antibodies against the spike receptor-binding domain (heavy:light variable regions). IC50 against pseudoviruses bearing the spike of naturally observed variants; lower = stronger; >10 µg/ml means not reached at the top dose. No active / inactive call. The stated detection limit is 0.0005 µg/ml; values near or below 0.001 µg/ml lie at the floor of the assay.

B1: BD55-6032 (protein)
chain 1: QVQLQESGPGLVKPSETLSLTCTVSGGSISSSYWSWIRQSPGKGLEWVGHISHSGSTNYNPSLKGRVTISVDTSKSQFSLKLRSVTAADTAVYYCARDPGNGFNYDYFDSWGQGTLVTVSS
chain 2: DIQMTQSPSSVSASVGDRVTITCRASQGISNWLAWYQQKPGKAPKLLIYGTSILQNGVPSRFSGSGSETEFTLTISSLQPEDFATYFCHQSSGFPPTFGPGTKVDIK
B2: BD55-6036 (protein)
chain 1: EVQLVQSGAEMKKPGESLKISCKGSGDSFTRYWIGWVRQMPGKGLEWMGVIYPGDSETRYSPSFQGQVTISADKSISTAYLQWSSLKASDTAMYYCATLLWGMAYGVFDIWGQGTMVTVSS
chain 2: DIVMTQSPDSLAVALGERATINCKSSQSVLYSSTNKNYLAWYQQKPGQPPKLLIYWASTRDSGVPDRFTGSGSGTDFTLTISSLQTEDVAVYYCQEYYSTSYTFGQGTKLEIK
B3: BD55-6038 (protein)
chain 1: EVQLVESGGGLVQPGGSLRLSCAASGFTFSNYDMYWVRQSTGKGLEWLSTIGTAGDTYYPDSVKGRFTISRENAKNSLYLQMNSLRAGDTAVYYCVRGDYDSTGFYSFFDNWGQGTLVTVSS
chain 2: DIQMTQSPSSLSASVGDRVTITCRASQTVTNYLNWYQQKPGKAPKLLIYAASSLQSGVPSRFSGSGSGTDFTLTISSLQPEDFATYYCQQSYSTGGYTFGQGTNLEIK
B4: BD55-6039 (protein)
chain 1: QVQLVQSGSGLKKPGASVKVSCKASGYTFTNYAMNWVRQAPGQGLEWMGWINTNTGHLTYAQGFTGRFVFSLDTSVSTAYLQISSLKAEDTAVYYCARSPGEGGYSGYDFSGYGMDVWGQGTTVTVSS
chain 2: DIQMTQSPSSLSASVGDRVNITCRASQTTRSNLNWYQQKPGKAPKLLIYTASILQSGVPSRFSGSGSGTDFTLSISSLQPEDFATYYCQQSYSTPRTFGQGTKLEIK
B5: BD55-6044 (protein)
chain 1: EVHLVESGGGLVQPGGSLRLSCAASGFTFSSYGMHWVRQAPGRGLEYVSSISSSGGGTFYADSVKGRFIISRDNSKNTLYLQMGSLRAEDTAVYYCAREGYSDYDFLRWFFDYWGQGTLVTVSS
chain 2: DIQMTQSPSSLSASVGDRVTITCRASQSITTYLNWYQQQPGKAPKLLIYAASSLQSGVPSRFSGSGSGTDFTLTISSLQPEDFATYYCQQSYTSPLYTFGQGTKLEIK
B6: BD55-6050 (protein)
chain 1: QVQLVQSGAEVKKPGASVKVSCKASGYTFTSSEINWVRQATGQGLEWMGWMNPNSGDTGYAQKFQGRVTLTRSTSTNTAYMELSSLGSEDTAVYYCARGRDYYERGTYFNPHGPYYYYGMDVWGQGTTVTVSS
chain 2: QSVLTQPPSASGTPGQRVIISCSGGSSNIGYNTVNWYQQVAGTAPRLLIYSDNQRPSGVPDRFSGSESGTSASLAISGLQSDDEADYYCASWDDSLNGWVFGGGTKLTVL

Each binder was assayed against SARS-CoV-2 Omicron BA.1 spike pseudovirus (assay: pseudovirus neutralization IC50; higher = weaker neutralization).
Method: (§1)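 Single-round VSV luciferase pseudovirus mixed with antibody dilutions for 1 h and put on Huh-7 cells for about a day; IC50 from the dose curve.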

| Binder | pseudovirus neutralization IC50 |
| --- | --- |
| B1 | > 10 µg/mL |
| B2 | > 10 µg/mL |
| B3 | > 10 µg/mL |
| B4 | > 10 µg/mL |
| B5 | > 10 µg/mL |
| B6 | > 10 µg/mL |

The binders below were run against SARS-CoV-2 Omicron BA.2 spike pseudovirus in the same assay as above.
Method: as §1

| Binder | pseudovirus neutralization IC50 |
| --- | --- |
| B1 | > 10 µg/mL |
| B2 | > 10 µg/mL |
| B3 | > 10 µg/mL |
| B4 | > 10 µg/mL |
| B5 | > 10 µg/mL |
| B6 | > 10 µg/mL |

Each binder was assayed against SARS-CoV-2 Omicron BA.2.75 spike pseudovirus in the same assay as above.
Method: as §1

| Binder | pseudovirus neutralization IC50 |
| --- | --- |
| B1 | > 10 µg/mL |
| B2 | > 10 µg/mL |
| B3 | > 10 µg/mL |
| B4 | > 10 µg/mL |
| B5 | > 10 µg/mL |
| B6 | > 10 µg/mL |

The binders below were run against SARS-CoV-2 Omicron BA.5 spike pseudovirus in the same assay as above.
Method: as §1

| Binder | pseudovirus neutralization IC50 |
| --- | --- |
| B1 | > 10 µg/mL |
| B2 | > 10 µg/mL |
| B3 | > 10 µg/mL |
| B4 | > 10 µg/mL |
| B5 | > 10 µg/mL |
| B6 | > 10 µg/mL |

These binders were tested against SARS-CoV-2 Omicron BQ.1.1 spike pseudovirus in the same assay as above.
Method: as §1

| Binder | pseudovirus neutralization IC50 |
| --- | --- |
| B1 | > 10 µg/mL |
| B2 | > 10 µg/mL |
| B3 | > 10 µg/mL |
| B4 | > 10 µg/mL |
| B5 | > 10 µg/mL |
| B6 | > 10 µg/mL |

Each binder was assayed against SARS-CoV-2 Omicron XBB spike pseudovirus in the same assay as above.
Method: as §1

| Binder | pseudovirus neutralization IC50 |
| --- | --- |
| B1 | > 10 µg/mL |
| B2 | > 10 µg/mL |
| B3 | > 10 µg/mL |
| B4 | > 10 µg/mL |
| B5 | > 10 µg/mL |
| B6 | > 10 µg/mL |

Each binder was assayed against SARS-CoV-2 early D614G spike pseudovirus in the same assay as above.
Method: as §1

| Binder | pseudovirus neutralization IC50 |
| --- | --- |
| B1 | > 10 µg/mL |
| B2 | > 10 µg/mL |
| B3 | 1.91 µg/mL |
| B4 | > 10 µg/mL |
| B5 | > 10 µg/mL |
| B6 | > 10 µg/mL |
